From patent EP0442663A1, “Improvements in chemical compounds” (priority 1990, dated 1991) come the findings set out here.

The test system of one series is HIV-1 (HTLV-IIIB). It is filed as cell-based. The method, then: (§1) The compounds of the invention were tested in a screen by the MTT method (J.Virol. Methods […]: 309-321 [1988]). MT-4 cells (2.5 x 10⁴ / well) were challenged with HIV-1 (HTLV-IIIB) or HIV-2 (LAV-2 ROD) at a concentration of 100 CCID₅₀ and incubated in the presence of various concentrations of the test compounds, which were added immediately after challenge with the virus. After 5 days culture at 37°C in a CO₂ incubator, the number of viable cells was assessed by the MTT (tetrazolium) method. Antiviral activity and cytotoxicity of the compounds are expressed in the table below as ED₅₀ (ug/ml) and CD₅₀ (ug/ml), respectively. The potential therapeutic usefulness was assessed by calculating a Selectivity Index (SI) corresponding to the ratio of CD₅₀ to ED₅₀. A control test was performed using the known anti-HIV treatment AZT, and a comparison compound HPA-23 was also run through the screen as detailed below. In the table below, the compounds screened were […]

Another series has as its system HIV-2 (LAV-2 ROD). The experiment in a line: MTT method anti-HIV screen in MT-4 cells, HIV-2 challenge. The format is cell-based. The method, then:
as §1

The mark [1] stands for this setting: Selectivity Index, ratio of CD50 to ED50, HIV-1, 7200 min.
Where [2] appears, read: Selectivity Index, ratio of CD50 to ED50, HIV-1; 7200 min.
Setting [3] is: Selectivity Index, ratio of CD50 to ED50, HIV-2; 7200 min.

Values joined by “and” are separate entries in the source; they are usually repeats but may differ in a detail not shown here. Identical values can stand only once. Like-named read-outs stand apart in the source and are kept apart here.

With (NH₄)₁₂[H₂P₂W₁₂O₄₈].16H₂O [Example 7], the SI in the series with HIV-1 (HTLV-IIIB) (setting [1]) is >171 and 236.

Take “(NH₄)₁₇H[NaSb₉W₂₁O₈₆] [HPA 23, reference compound]”: the SI in the series on HIV-1 (HTLV-IIIB) (setting [2]) is listed as <2.7; with HIV-2 (LAV-2 ROD) (setting [3]), <1.

Turning to K9Li[P2W17O62] [E], the values for the SI in the series with HIV-1 (HTLV-IIIB) (setting [2]) and with HIV-2 (LAV-2 ROD) (setting [3]) were 172 and 59, respectively.

In the case of K10[P2W18Co4(H2O)2O68], the SI was 58 in the series with HIV-1 (HTLV-IIIB) (setting [2]) and 7 in the series on HIV-2 (LAV-2 ROD) (setting [3]). In the same order, the values of K10[P2W18Zn4(H2O)2O68] [B] are 661 and 25. On the same counts, the results for K12[H2P2W12O48] [A] are 8138 and 4403. In the same order, the values of Na7[PrW10O35] [C] are 409 and 285. Turning to Na12[P4W14O58] [F], the SI in the series on HIV-1 (HTLV-IIIB) (setting [2]) is recorded as 136; in the series with HIV-2 (LAV-2 ROD) (setting [3]), 51. For the substance “Reduced form of K₆[P₂W₁₂Mo₆O₆₂] [Example 12]”, the SI in the series with HIV-1 (HTLV-IIIB) (setting [1]) was 57 and 52; in the series on HIV-2 (LAV-2 ROD) (Selectivity Index, ratio of CD50 to ED50, HIV-2, 7200 min), 173 and 214.
